# Results: patent US5453533A (priority 1994, dated 1995)
# Test system: influenza NA
# Test: In vitro inhibition of influenza neuraminidase, whole virus
# Assay type: biochemical, influenza virus type A or type B
# Conditions: read-out: IC50 constants; three selected inhibitors
row,SMILES,IC50 [mM]
1,"CC(=O)Nc1ccc(C(=O)O)cc1N [Compound 108, 4-(acetylamino)-3-aminobenzoic acid]",20
2,"CC(=O)Nc1c(N)cc(C(=O)O)cc1O.Cl [Compound 106, 3-amino-4-(acetylamino)-5-hydroxybenzoic acid, hydrochloride]",10
3,"CC(=O)Nc1c(O)cc(C(=O)O)cc1[N+](=O)[O-] [Compound 105, 4-(acetylamino)-3-hydroxy-5-nitrobenzoic acid]",5
